Compound potency records, mixed from different reports. Data source: NIAID ChemDB in PubChem.

Common to all: host cell toxicity; cell line: MOLT-3; endpoint: CC50

Blank or dashed fields: not listed here. Rows are shuffled and stem from different studies. CCn: concentration that lowers growth or viability of the cells by n%.

| SMILES | read by | value |
|---|---|---|
| COc1ccc(OCC2OC2COC(=O)c2ccc(O)c(OC)c2)cc1 | MTS / tetrazolium / absorbance | 241 µM |
| O=C(OCc1ccccc1)N1OCCC1n1cc(COCc2cn(Cc3ccccc3)nn2)c(=O)[nH]c1=O | MTS | 552 µM |
| Cc1cc(C#N)cc(C)c1Oc1cc(Oc2c(C)cc(C#N)cc2C)c2ccccc2n1 | XTT | ≥50 µg/mL |
| CC(C)Nc1nc2cc(Cl)c(Cl)cc2n1[C@H]1O[C@H](C)[C@H](O)[C@@H]1O | ATP | >100 µM |
| Cc1cc(C=O)cc(C)c1Oc1cc(Nc2ccc(C#N)cc2)nc2ccccc12 | MTT | 11.8 µM |
| OC[C@@H]1O[C@@H](n2c(Br)nc3cc(Cl)c(Cl)cc32)[C@H](O)[C@H]1O | ATP | 14 µM |
| O=C(OCc1ccccc1)N1OCCC1n1cc(COCc2cn(CCO)nn2)c(=O)[nH]c1=O | MTS | 670 µM |
| CCCCC(=O)OC1CC(OC(C)C(C)C(O)C(C)C(O)C(C)C2OC(=O)/C=C/CC(O)CC(O)CC(O)CCC(C)C(O)C[C@@]3(O)O[C@H](CC(O)CC(OC(=O)CC(=O)O)CCCC(O)C4OC4C2C)C[C@H](O)[C@H]3O)OC(C)C1O | - | >100 µg/mL |
| COc1ccc(-n2cc(COCc3cn(C4CCON4C(=O)OCc4ccccc4)c(=O)[nH]c3=O)nn2)cc1 | MTS | 594 µM |
| CC(C)Nc1nc2cc(Cl)c(Cl)cc2n1[C@@H]1OC[C@@H](O)[C@H]1O | ATP | >100 µM |
| CCO[P+](O)(OCC)[C@@H]1C[C@H](C[N+]2=CC(F)C(=O)NC2=O)N(C)O1 | MTS | >1000 µM |
| O[C@@H]1[C@H](O)CO[C@H]1n1c(Br)nc2cc(Cl)c(Cl)cc21 | ATP | 85 µM |
| C=CCOCc1cn(C2CCON2C(=O)OCc2ccccc2)c(=O)[nH]c1=O | MTS | >1000 µM |
| NC(=O)c1c(Cl)c(-c2cccnc2)n2c1CCCC2 | - | 91.4 µM |
| OC[C@H]1CC(n2c(Br)nc3cc(Cl)c(Cl)cc32)[C@H](O)[C@@H]1O | ATP | 32 µM |

A second listing of 2 rows from above:

SMILES	read by	value
CCO[P+](O)(OCC)[C@@H]1C[C@H](C[N+]2=CC(F)C(=O)NC2=O)N(C)O1	MTS	>1000 µM
O=C(OCc1ccccc1)N1OCCC1n1cc(COCc2cn(Cc3ccccc3)nn2)c(=O)[nH]c1=O	MTS	552 µM